Compound potency records, mixed from different reports. Data source: NIAID ChemDB in PubChem.

Common to all: whole-cell or culture tests; species: Candida albicans

Blank or dashed fields: not listed here. A number after MIC or MFC names an inhibition level or a share of isolates. Lines come from different laboratories, so protocols vary.

O=S(=O)(NC(=S)Nc1ccccc1)c1ccc(N2N=C(c3ccc(Cl)cc3)CC2c2ccccc2)cc1 ; strain or isolate: ATCC 2091 ; read-out: MIC ; value: 50 µg/mL
O=C(c1ccccc1)C(c1ccccc1)n1cnc2ccccc21 ; method: broth dilution ; read-out: MFC ; value: >256 µg/mL
C[C@@H]1[C@H](O)[C@@H](C)/C=C/C=C/C=C/C=C/C=C/C=C/C=C/[C@H](O[C@@H]2O[C@H](C)[C@@H](O)[C@H](N)[C@@H]2O)C[C@@H]2O[C@](O)(C[C@@H](O)C[C@@H](O)[C@H](O)CC[C@@H](O)C[C@@H](O)CC(=O)O[C@H]1C)C[C@H](O)[C@H]2C(=O)O ; strain or isolate: Clinical isolate 44A ; method: broth dilution ; read-out: MFC ; value: 8 µg/mL
Cc1c(Cn2ccnc2)cc(-c2ccccc2)n1-c1ccccc1 ; strain or isolate: 20 strains ; read-out: Mean MIC ; value: 81.8 µg/mL
Cc1c(O)cccc1C(=O)N[C@@H](CSc1ccccc1)[C@H](O)CN1C[C@H]2CCCC[C@H]2C[C@H]1C(=O)NC(C)(C)C ; strain or isolate: I170A ; read-out: MIC ; value: >64 µg/mL
COc1ccc(C2=CC(c3ccc(S(N)(=O)=O)cc3)C(c3ccccc3)C2Br)cc1 ; strain or isolate: ATCC 2091 ; read-out: MIC ; value: 200 µg/mL
COc1cc(-c2n[nH]c(COc3nc(C(F)(F)F)nc4ccccc34)n2)cc(OC)c1OC ; strain or isolate: MTCC 227 ; read-out: MIC100 ; value: 6.25 µg/mL
O=c1[nH]cc(F)c(=O)[nH]1 ; strain or isolate: B311 ; read-out: MIC ; value: 4 µg/mL
CCn1c2ccccc2c2cnn(-c3ccc(Cl)cc3)c(=O)c21 ; method: broth dilution ; read-out: MIC ; value: 250 µg/mL
FC(F)(F)c1nc(OCc2nc(-c3ccco3)n[nH]2)c2ccccc2n1 ; strain or isolate: MTCC 227 ; read-out: MIC100 ; value: 6.25 µg/mL
N#Cc1c(C(=O)NO)[nH]c2ccccc12 ; method: broth dilution ; read-out: MIC ; value: 250 µg/mL
CCCCCCCCNC1NCCC2c3ccccc3CCN12 ; strain or isolate: NFI0124 ; read-out: MIC ; value: 16 µg/mL
Clc1ccc(C(c2ccccc2)n2nnc3ccccc32)cc1 ; method: broth dilution ; read-out: MFC ; value: >256 µg/mL
Cc1c(Cn2ccnc2)cc(-c2ccccc2)n1-c1ccc(Cl)cc1Cl ; strain or isolate: 20 strains ; read-out: Mean MIC ; value: 36.6 µg/mL
NNC(=O)Cc1nnc2nnc3c(n12)Nc1ccccc1C3 ; strain or isolate: ATCC 2091 ; read-out: MIC ; value: 200 µg/mL
Cn1c2ccccc2c2cnn(-c3ccc(Br)cc3)c(=O)c21 ; method: broth dilution ; read-out: MIC ; value: 250 µg/mL
C(=N\Nc1nnc2c(n1)Nc1ccccc1N2)/c1ccccc1 ; strain or isolate: ATCC 2091 ; read-out: MIC ; value: 200 µg/mL
C[C@H](N)C(=O)N[C@H](C(=O)O)n1cc(F)c(=O)[nH]c1=O ; strain or isolate: B311 ; read-out: MIC ; value: 12.5 µg/mL
Cc1c(C(N)=O)cc(-c2ccc(Cl)cc2)n1-c1ccc(Cl)cc1 ; strain or isolate: 20 strains ; read-out: Mean MIC ; value: >200 µg/mL
Cc1nc(OCc2nc(-c3ccc(Cl)cc3)n[nH]2)c2ccccc2n1 ; strain or isolate: MTCC 227 ; read-out: MIC100 ; value: 6.25 µg/mL
O=C1S/C(=C\c2ccco2)C(=O)N1CC(O)(Cn1nccn1)c1ccc(F)cc1F ; strain or isolate: CaCYP51 ; read-out: MIC80 ; value: 0.15 µg/mL
C[N+](C)(C)CCOP(=O)([O-])OCCCCCCCCCCCC1C2CC3CC(C2)CC1C3 ; strain or isolate: ATCC 10231 ; method: broth dilution ; read-out: MFC ; value: 8 µg/mL
Cc1c(CN(C)C)cc(-c2ccccc2)n1-c1ccc(Cl)cc1 ; strain or isolate: 20 strains ; read-out: Mean MIC ; value: 51.9 µg/mL
Cc1ccc(OCC(=O)Nc2ccccc2C(=O)Nc2cc(C)on2)cc1 ; strain or isolate: ATCC 10231 ; read-out: MIC ; value: >100 µg/mL
CC1=NN(c2nnc3c(n2)Nc2ccccc2C3)C(=O)C1=C(C)C ; strain or isolate: ATCC 2091 ; read-out: MIC ; value: 200 µg/mL
Cc1ccc(-c2ccccc2)n1-c1ccc(F)cc1 ; strain or isolate: 20 strains ; read-out: Mean MIC ; value: >200 µg/mL
COc1ccc(-c2n[nH]c(COc3ncnc4ccccc34)n2)cc1 ; strain or isolate: MTCC 227 ; read-out: MIC100 ; value: 12.5 µg/mL
Cc1cc(NC(=O)c2cccc(NC(=O)COc3ccccc3)c2)no1 ; strain or isolate: ATCC 10231 ; read-out: MIC ; value: >100 µg/mL
C=C(CCCCCNC1NCCC2c3ccccc3CCN12)C(C)C ; strain or isolate: NFI2103 ; read-out: MIC80 ; value: 16 µg/mL
Cc1cc(CN(C)C)c(C)n1-c1ccccc1 ; strain or isolate: 20 strains ; read-out: Mean MIC ; value: >200 µg/mL
O[C@](Cn1cncn1)(Cn1cnc(/C=C/c2ccc(OCC(F)(F)C(F)F)cc2)n1)c1ccc(F)cc1F ; strain or isolate: Isolate 08-37 ; read-out: MIC ; value: 2 µg/mL
CCc1ccccc1-n1ncc2c3ccccc3n(CC)c2c1=O ; method: broth dilution ; read-out: MIC ; value: 250 µg/mL
CC(C)CCCCCCNC1NCCC2c3ccccc3CCN12 ; strain or isolate: NFI2103 ; read-out: MIC ; value: 8 µg/mL
O=C(c1ccccc1)C(c1ccccc1)n1ccnc1 ; method: agar ; read-out: MIC90 ; value: >256 µg/mL
CCn1c2ccccc2c2cnn(-c3ccc(F)cc3)c(=O)c21 ; method: broth dilution ; read-out: MIC ; value: 250 µg/mL
c1ccc(C(c2ccccc2)n2ccnc2)cc1 ; method: broth dilution ; read-out: MFC ; value: 64 µg/mL
O=C1S/C(=C\c2ccc3ccccc3n2)C(=O)N1CC(O)(Cn1nccn1)c1ccc(F)cc1F ; strain or isolate: CaCYP51 ; read-out: MIC80 ; value: 1.01 µg/mL
O=c1c2[nH]c3ccccc3c2cnn1-c1ccc(F)cc1 ; method: broth dilution ; read-out: MIC ; value: 250 µg/mL
C[N+](C)(C)CCOP(=O)([O-])OCCCCCC1CCCCCCCCCCCCCC1 ; strain or isolate: ATCC 10231 ; method: broth dilution ; read-out: MFC ; value: 8 µg/mL
CCOC(=O)c1c(C#N)c2ccccc2n1CC ; method: broth dilution ; read-out: MIC ; value: 250 µg/mL
COc1ccc(-c2n[nH]c(COc3nc(C(F)(F)F)nc4ccccc34)n2)cc1OC ; strain or isolate: MTCC 227 ; read-out: MIC100 ; value: 6.25 µg/mL
Cn1ncc2c3ccccc3n(C)c2c1=O ; method: broth dilution ; read-out: MIC ; value: 250 µg/mL
C=CCc1ccc(OC)c(OC)c1 ; strain or isolate: 2920 ; method: turbidity ; read-out: MIC90 ; value: 350 µg/mL
O=C1S/C(=C\c2ccccc2)C(=O)N1CC(O)(Cn1nccn1)c1ccc(F)cc1F ; strain or isolate: CaCYP51 ; read-out: MIC80 ; value: 0.14 µg/mL
CCCCCCCCNC1NCCC2c3ccc(OC)cc3CCN12 ; strain or isolate: NFI0124 ; read-out: MIC ; value: 32 µg/mL
Cc1ccc(OCC(=O)Nc2ccc(C(=O)Nc3cc(C)on3)cc2)cc1 ; strain or isolate: ATCC 10231 ; read-out: MIC ; value: >100 µg/mL
O=C1S/C(=C\c2cccs2)C(=O)N1CC(O)(Cn1nccn1)c1ccc(F)cc1F ; strain or isolate: CaCYP51 ; read-out: MIC80 ; value: 1.11 µg/mL
CCc1ccccc1-n1ncc2c3ccccc3n(C)c2c1=O ; method: broth dilution ; read-out: MIC ; value: 250 µg/mL
COc1ccc(/C=C2\SC(=O)N(CC(O)(Cn3nccn3)c3ccc(F)cc3F)C2=O)cc1 ; strain or isolate: CaCYP51 ; read-out: MIC80 ; value: 1.06 µg/mL
Cc1c(CN2CCN(C)CC2)cc(-c2ccccc2)n1-c1ccc(Cl)cc1Cl ; strain or isolate: 20 strains ; read-out: Mean MIC ; value: 43.5 µg/mL
Cc1cc(NC(=O)c2ccccc2NC(=O)COc2ccccc2)no1 ; strain or isolate: ATCC 10231 ; read-out: MIC ; value: >100 µg/mL
COc1ccc(C2=NOC(c3cc4c([nH]3)CC(C)(C)CC4=O)C2)cc1 ; strain or isolate: ATCC 2091 ; read-out: MIC ; value: 200 µg/mL
Cc1cc(CN(C)C)c(C)n1-c1ccc(Cl)cc1Cl ; strain or isolate: 20 strains ; read-out: Mean MIC ; value: 32.8 µg/mL

5 of the rows above, restated:

smiles,strain or isolate,method,read-out,value
C[N+](C)(C)CCOP(=O)([O-])OCCCCCCCCCCCC1C2CC3CC(C2)CC1C3,ATCC 10231,broth dilution,MFC,8 µg/mL
Cc1cc(NC(=O)c2ccccc2NC(=O)COc2ccccc2)no1,ATCC 10231,-,MIC,>100 µg/mL
O=C1S/C(=C\c2ccco2)C(=O)N1CC(O)(Cn1nccn1)c1ccc(F)cc1F,CaCYP51,-,MIC80,0.15 µg/mL
O=C(c1ccccc1)C(c1ccccc1)n1ccnc1,-,agar,MIC90,>256 µg/mL
CCCCCCCCNC1NCCC2c3ccccc3CCN12,NFI0124,-,MIC,16 µg/mL